Measured values from several laboratories, pooled; numbers as filed in NIAID ChemDB.

Shared fields: whole-cell or culture tests

Percent inhibition refers to the dose given; in toxicity tests it is the harm to the cells.

smiles,species,strain,method,conditions,endpoint,dose,result
C[C@@H]1CC(=O)N(Cc2ccccc2)C1=O,Candida lusitaniae,CCC 134-2000,broth dilution / turbidity,,MIC,,31.3 µg/mL
COc1cc(C2Oc3ccc4c(=O)c5c(O)cc(O)cc5oc4c3OC2CO)cc(OC)c1O,Candida spp.,,broth dilution,,MIC,,>64 µg/mL
O=c1[nH]c(-c2cc3ccccc3oc2=O)nc2c1C(c1ccc(Cl)cc1)c1ccc3ccccc3c1O2,Candida rugosa,,agar diffusion / agar,,zone,100 µg/mL,9 mm
CCCCCCCCCCCCCCn1cc[n+](COCCCCCOC[n+]2ccn(CCCCCCCCCCCCCC)c2)c1,Candida krusei,ATCC 6258,agar diffusion,,MIC100,,3 µM
c1ccc(C(c2ccccc2)n2ccnc2)cc1,Candida parapsilosis,,broth dilution,,MFC,,16 µg/mL
O=C1S/C(=C\c2ccoc2)C(=O)N1CC(O)(Cn1nccn1)c1ccc(F)cc1F,Candida colliculosa,Fluconazole-resistant 805,,,MIC80,,37 µg/mL
O=C(NN=C1CCCCCC1)c1snnc1C(F)(F)F,Candida rugosa,NCIM 3462,agar diffusion / agar,,zone,100 µg/mL,0 mm
CCC(C)CC(C)CCCCCCCCC(=O)N[C@H]1C[C@@H](O)[C@H](NCCN)NC(=O)[C@@H]2[C@@H](O)CCN2C(=O)[C@H]([C@H](O)CCN)NC(=O)[C@H]([C@H](O)[C@@H](O)c2ccc(O)cc2)NC(=O)[C@@H]2C[C@@H](O)CN2C(=O)[C@H]([C@@H](C)O)NC1=O,Candida glabrata,40 isolates,broth dilution,pH 7,MIC,,0.5 µg/mL
NC(=NC1CCCC1)c1ccc(-c2ccc(-c3ccc(C(N)=NC4CCCC4)cc3)o2)cc1,Candida albicans,A39,,,MFC,,25 µg/mL
CC1(C)O[C@H]2[C@H](O)[C@@H](N=[N+]=[N-])C=C(c3ccc(C=O)cc3)[C@H]2O1,Candida tropicalis,C 131,broth dilution / turbidity,,inhibition,125 µg/mL,84.05%
O=C(c1ccccc1)C(c1ccccc1)n1ccnc1,Candida dubliniensis,,broth dilution,,MFC,,256 µg/mL
C[C@H]1[C@H](O)[C@@H](C)/C=C/C=C/C=C/C=C/C=C/C=C/C=C/[C@H](O[C@@H]2O[C@H](C)[C@@H](O)[C@H](N)[C@@H]2O)C[C@@H]2O[C@](O)(C[C@@H](O)C[C@@H](O)CC[C@H](O)[C@@H](O)C[C@@H](O)CC(=O)O[C@H]1C)C[C@H](O)[C@H]2C(=O)O,Candida spp.,,broth dilution,,MIC100,,2.68 µg/mL
Cc1ccc(/C=N/Nc2ccnc3cc(Cl)ccc23)cc1,Candida lipolytica,,,,MIC,,40 µg/mL
O=C(NN=Cc1ccc(F)cc1)c1snnc1C(F)(F)F,Candida rugosa,NCIM 3462,agar diffusion / agar,,zone,100 µg/mL,0 mm
O=c1[nH]c(-c2cc3ccccc3oc2=O)nc2c1C(c1ccc(O)cc1)c1ccc3ccccc3c1O2,Candida rugosa,,agar diffusion / agar,,zone,150 µg/mL,15 mm
CCCCCCCCCCCCCCCCn1cc[n+](COCCCCOC[n+]2ccn(CCCCCCCCCCCCCCCC)c2)c1,Candida krusei,ATCC 6258,agar diffusion,,MIC100,,6 µM
O=C(NN=Cc1ccc(Br)cc1)c1snnc1C(F)(F)F,Candida rugosa,NCIM 3462,agar diffusion / agar,,zone,100 µg/mL,0 mm
C[C@H]1[C@H](O)[C@@H](C)/C=C/C=C/C=C/C=C/C=C/C=C/C=C/[C@H](O[C@@H]2O[C@H](C)[C@@H](O)[C@H](N)[C@@H]2O)C[C@@H]2O[C@](O)(C[C@@H](O)C[C@@H](O)CC[C@H](O)[C@@H](O)C[C@@H](O)CC(=O)O[C@H]1C)C[C@H](O)[C@H]2C(=O)O,Candida lusitaniae,FMR 9474,broth dilution,,MIC,,0.25 µg/mL
CC1C(=O)N(Cc2ccccc2)C(=O)C1C,Candida lusitaniae,CCC 134-2000,broth dilution / turbidity,,MIC,,125 µg/mL
CCOc1ccc2nc3cc(N=C4NC(=O)/C(=C\c5ccc([N+](=O)[O-])cc5)S4)ccc3c(N)c2c1,Candida kefyr,ATCC 8614,broth dilution,,MIC,,250 µg/mL
O=C(CCn1ccnc1)c1ccc(Br)cc1,Candida guilliermondii,RTCC 1377,broth dilution,,MIC,,64 µg/mL
CCC(C)n1ncn(-c2ccc(N3CCN(c4ccc(OC[C@H]5CO[C@](Cn6cncn6)(c6ccc(Cl)cc6Cl)O5)cc4)CC3)cc2)c1=O,Candida spp.,Fluconazole-resistant,broth dilution,,MIC90,,>4 µg/mL
COc1c(O)ccc2c(=O)c3c(O)cc4c(c3oc12)C(C)(C)C(C)O4,Candida spp.,,broth dilution,,MIC,,>64 µg/mL
C[C@@H]1C(=O)N(CCc2ccccc2)C(=O)[C@@H]1C,Candida lusitaniae,CCC 134-2000,broth dilution / turbidity,,MIC,,62.5 µg/mL
CCCCCCCCCCCCCCCC(=O)NC(CCCCN)C(=O)NC(CCCCN)C(N)=O,Candida guilliermondii,4783,broth dilution,,MIC,,8 µg/mL
Cc1nc2c(s1)C(=O)C(Nc1ccc(Br)cc1)=C(Cl)C2=O,Candida utilis,KCCM 50662,broth dilution,,MIC,,25 µg/mL
CCCCCCCCCCCn1cc[n+](COCCCCCOC[n+]2ccn(CCCCCCCCCCC)c2)c1,Candida krusei,ATCC 6258,agar diffusion,,MIC100,,4 µM
c1ccc(C(c2ccccc2)n2nnc3ccccc32)cc1,Candida dubliniensis,,agar,,MIC90,,>256 µg/mL
O=C(CCn1ccnc1)c1cccc(C(O)c2ccc(Cl)c(Cl)c2)c1,Candida guilliermondii,RTCC 1377,broth dilution,,MIC,,16 µg/mL
Clc1ccc(COC(Cn2ccnc2)c2ccc(Cl)cc2Cl)c(Cl)c1,Candida glabrata,40 isolates,broth dilution,pH 7,MIC,,0.03 µg/mL
CCc1c(OC)ccc2sc(C)nc12,Candida utilis,KCCM 50662,broth dilution,,MIC,,50 µg/mL
CC(C)(O)c1cn(-c2cccc3ccccc23)nn1,Candida albicans,URM 3719,broth dilution,,inhibition,2048 µg/mL,0%
COc1ccc(C(c2ccc(OC)cc2)n2ccnc2)cc1,Candida dubliniensis,,broth dilution,,MFC,,>256 µg/mL
Cc1nc2c(s1)C(=O)C(Nc1ccccc1)=C(Cl)C2=O,Candida utilis,KCCM 50662,broth dilution,,MIC,,6.3 µg/mL
C[C@@H]1C(=O)N(c2ccccc2)C(=O)[C@@H]1C,Candida lusitaniae,CCC 134-2000,broth dilution / turbidity,,MIC,,62.5 µg/mL
O=C(CCn1ccnc1)c1ccc(Cl)cc1,Candida guilliermondii,RTCC1248,broth dilution,,MIC,,>64 µg/mL
O=C(NN=Cc1cccs1)c1snnc1C(F)(F)F,Candida rugosa,NCIM 3462,agar diffusion / agar,,zone,150 µg/mL,0 mm
O=C1C2=C(OC(CI)C2)C(=O)c2ccccc21,Candida tropicalis,Clinical isolate,broth dilution,,MIC,,20.15 µg/mL
CN(C)c1ccc(C2c3ccc4ccccc4c3Oc3nc(-c4cc5ccccc5oc4=O)[nH]c(=O)c32)cc1,Candida rugosa,,agar diffusion / agar,,zone,150 µg/mL,16 mm
O=C(O)c1ccc(C[C@H](C(=O)O)[C@@H](O)C(=O)O)cc1,Candida pseudotropicalis,CBS 7987,,,MIC,,>4 µg/mL
CC(C)(O)c1cn(-c2ccc([N+](=O)[O-])cc2)nn1,Candida albicans,URM 4990,broth dilution,,inhibition,2048 µg/mL,0%
COC(=O)c1c(N)oc2c1cc(O)c1sc(C)nc12,Candida utilis,KCCM 50662,broth dilution,,MIC,,25 µg/mL
Cc1ccc(C(O)c2cccc(C(O)CCn3ccnc3)c2)cc1,Candida guilliermondii,RTCC1248,broth dilution,,MIC,,>64 µg/mL
C[C@@H](c1ncncc1F)[C@](O)(Cn1cncn1)c1ccc(F)cc1F,Candida spp.,Fluconazole-resistant,broth dilution,,MIC50,,>4 µg/mL
COc1cc(C2c3ccc4ccccc4c3Oc3nc(-c4cc5ccccc5oc4=O)[nH]c(=O)c32)ccc1O,Candida rugosa,,agar diffusion / agar,,zone,150 µg/mL,18 mm
CC(=NNC(=O)c1snnc1C(F)(F)F)c1ccccc1,Candida rugosa,NCIM 3462,agar diffusion / agar,,zone,150 µg/mL,0 mm
COc1ccc(C2c3ccc4ccccc4c3Oc3nc(-c4cc5ccccc5oc4=O)[nH]c(=O)c32)cc1OC,Candida rugosa,,agar diffusion / agar,,zone,100 µg/mL,18 mm
Cc1ccc(-n2cc(C(C)(C)O)nn2)cc1C,Candida tropicalis,URM 4790,broth dilution,,inhibition,2048 µg/mL,0%
Cc1nc2c(s1)C(=O)C(Nc1ccc(C)c(C)c1)=C(Cl)C2=O,Candida utilis,KCCM 50662,broth dilution,,MIC,,3.2 µg/mL
c1ccc(C(c2ccccc2)n2cncn2)cc1,Candida dubliniensis,,agar,,MIC90,,8 µg/mL
CC(C)CC(O)C(=O)O,Candida dubliniensis,EO 323,broth dilution,,EC50,,18000 µg/mL
OC(CCn1ccnc1)c1cccc(C(O)c2ccc(Cl)cc2)c1,Candida guilliermondii,RTCC1248,broth dilution,,MIC,,>64 µg/mL
CC(C)(O)c1cn(-c2ccc3ccccc3c2)nn1,Candida parapsilosis,URM 4608,broth dilution,,inhibition,2048 µg/mL,0%
C[C@@H](c1ncncc1F)[C@](O)(Cn1cncn1)c1ccc(F)cc1F,Candida glabrata,40 isolates,broth dilution,pH 7,EC90,,0.5 µg/mL
C=CCc1ccc(OC)c(OC)c1,Candida albicans,2920,turbidity,,MIC90,,350 µg/mL
Clc1ccc(C(c2ccccc2)N2CCN(CCn3ccnc3)CC2)cc1,Candida dubliniensis,,broth dilution,,MFC,,>256 µg/mL
O=C(CCn1ccnc1)c1cccc(C(O)c2ccc(Br)cc2)c1,Candida guilliermondii,RTCC1248,broth dilution,,MIC,,64 µg/mL
CC(C)C[C@H](N)C(=O)O,Candida dubliniensis,T-98 QC2000,broth dilution,,MFC100,,>72000 µg/mL
CC[C@@H]([C@H](C)O)n1ncn(-c2ccc(N3CCN(c4ccc(OC[C@@H]5CO[C@@](Cn6cncn6)(c6ccc(F)cc6F)C5)cc4)CC3)cc2)c1=O,Candida albicans,10 isolates,broth dilution,pH 7,EC90,,0.03 µg/mL
CCCCCn1cc[n+](COCCOC[n+]2ccn(CCCCC)c2)c1,Candida krusei,ATCC 6258,agar diffusion,,MIC100,,712 µM

The last 7 rows once more:

| smiles | species | strain | method | conditions | endpoint | dose | result |
|---|---|---|---|---|---|---|---|
| C[C@@H](c1ncncc1F)[C@](O)(Cn1cncn1)c1ccc(F)cc1F | Candida glabrata | 40 isolates | broth dilution | pH 7 | EC90 |  | 0.5 µg/mL |
| C=CCc1ccc(OC)c(OC)c1 | Candida albicans | 2920 | turbidity |  | MIC90 |  | 350 µg/mL |
| Clc1ccc(C(c2ccccc2)N2CCN(CCn3ccnc3)CC2)cc1 | Candida dubliniensis |  | broth dilution |  | MFC |  | >256 µg/mL |
| O=C(CCn1ccnc1)c1cccc(C(O)c2ccc(Br)cc2)c1 | Candida guilliermondii | RTCC1248 | broth dilution |  | MIC |  | 64 µg/mL |
| CC(C)C[C@H](N)C(=O)O | Candida dubliniensis | T-98 QC2000 | broth dilution |  | MFC100 |  | >72000 µg/mL |
| CC[C@@H]([C@H](C)O)n1ncn(-c2ccc(N3CCN(c4ccc(OC[C@@H]5CO[C@@](Cn6cncn6)(c6ccc(F)cc6F)C5)cc4)CC3)cc2)c1=O | Candida albicans | 10 isolates | broth dilution | pH 7 | EC90 |  | 0.03 µg/mL |
| CCCCCn1cc[n+](COCCOC[n+]2ccn(CCCCC)c2)c1 | Candida krusei | ATCC 6258 | agar diffusion |  | MIC100 |  | 712 µM |

ECn is the concentration giving n% inhibition of infection, replication or growth. Blank or dashed fields: not listed here. MIC50, MIC90 and the like: level of inhibition, or share of isolates inhibited. Lines come from different laboratories, so protocols vary. Zone: diameter of growth inhibition.